Measurements reported in PubChem BioAssay AID504761 (Drosophila RNAi Screening Center, 2011).
The screen tested about 22,000 reagents; this is a random part of those with a known target gene and a result. In the full data, 116 (0.52%) were called active. 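Calls depend on retest data that are not deposited; infection was ranked per plate without normalising between plates; the unit of the infection score is not given.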 The raw values are shown without normalisation. Not given: the amount of reagent, the time to read-out.

- Test: 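Genome-wide fly cell screen for genes dengue virus requires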 (primary screen)
- Cells: D.Mel-2 cells from Drosophila
- Reagent: long dsRNA against Drosophila genes
- Treatment: infection with dengue virus type 2; dose and infection time not stated
- Measured: 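Per well on two replicate plates, imaging gave the percent of cells positive for viral envelope protein, ranked by infection, and a nuclear count of cells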
- Reading the numbers: infection score: higher = more virus-infected cells; cell count: higher = more cells in the well
- Hit rule: 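Low infection ranks in the two replicates (chance level up to 0.065) followed by a retest with a 1.5-fold or larger significant decrease, p below 0.05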
- Meaning of the calls: active = confirmed: knock-down lowers infection; inactive = not picked or not confirmed

Depletion of wtrw [DRSC14241] resulted in: infection score, replicate 1 = 4.02; infection score, replicate 2 = 6.38; cell count, replicate 1 = 6897; cell count, replicate 2 = 6517; inactive.
After knock-down of wtrw [DRSC15278], the record shows infection score, replicate 1 = 6.67; infection score, replicate 2 = 14.2; cell count, replicate 1 = 6475; cell count, replicate 2 = 5247; inactive.
With knock-down of wtrw [DRSC29977] the results were infection score, replicate 1 = 11.5; infection score, replicate 2 = 1.61; cell count, replicate 1 = 6285; cell count, replicate 2 = 6203; inactive.
Depletion of CG9706 [DRSC11095] resulted in: infection score, replicate 1 = 2.17; infection score, replicate 2 = 5.61; cell count, replicate 1 = 6685; cell count, replicate 2 = 6812; inactive.
After knock-down of kek6 [DRSC15299], the screen gave infection score, replicate 2 = 8.01; cell count, replicate 1 = 338; cell count, replicate 2 = 6121; inactive.
After knock-down of kek6 [DRSC23759], the screen gave infection score, replicate 1 = 1.8; infection score, replicate 2 = 5.66; cell count, replicate 1 = 5938; cell count, replicate 2 = 5933; inactive.
Silencing of Alg3 [DRSC04700] came out at: infection score, replicate 1 = 23; infection score, replicate 2 = 24.8; cell count, replicate 1 = 6785; cell count, replicate 2 = 6245; inactive.
After knock-down of CG13606 [DRSC14609], the record shows infection score, replicate 1 = 0.6; infection score, replicate 2 = 0.89; cell count, replicate 1 = 6948; cell count, replicate 2 = 6754; active.
After knock-down of tld [DRSC17084] the results were infection score, replicate 1 = 2.84; infection score, replicate 2 = 0.45; cell count, replicate 1 = 6591; cell count, replicate 2 = 441; inactive.
CG42266 [DRSC21577] gave infection score, replicate 1 = 1.32; infection score, replicate 2 = 3.28; cell count, replicate 1 = 6142; cell count, replicate 2 = 6614; inactive.
Silencing of CG42266 [DRSC21957] gave: infection score, replicate 1 = 19.7; infection score, replicate 2 = 7.98; cell count, replicate 1 = 6954; cell count, replicate 2 = 2004; inactive.
Against CG42266 [DRSC29782], the entry reads infection score, replicate 1 = 25.6; infection score, replicate 2 = 8.88; cell count, replicate 1 = 5844; cell count, replicate 2 = 6014; inactive.

2 neighbouring reagents already listed, quoted:
kek6 [DRSC23759]: infection score, replicate 1 = 1.8; infection score, replicate 2 = 5.66; cell count, replicate 1 = 5938; cell count, replicate 2 = 5933; Outcome = inactive
Alg3 [DRSC04700]: infection score, replicate 1 = 23; infection score, replicate 2 = 24.8; cell count, replicate 1 = 6785; cell count, replicate 2 = 6245; Outcome = inactive
